Several values for one entry are separate records, joined by “and”; a condition that tells them apart may be missing. Equal values may be shown once.
Molecular target: TLR2 (CD282) on human neutrophils and monocytes (human, UniProt O60603 21-784)

B1: Staphylococcal superantigen-like 3 (SSL3) protein of S. aureus strain NCTC 8325, recombinant, His-tag removed (other)
chain: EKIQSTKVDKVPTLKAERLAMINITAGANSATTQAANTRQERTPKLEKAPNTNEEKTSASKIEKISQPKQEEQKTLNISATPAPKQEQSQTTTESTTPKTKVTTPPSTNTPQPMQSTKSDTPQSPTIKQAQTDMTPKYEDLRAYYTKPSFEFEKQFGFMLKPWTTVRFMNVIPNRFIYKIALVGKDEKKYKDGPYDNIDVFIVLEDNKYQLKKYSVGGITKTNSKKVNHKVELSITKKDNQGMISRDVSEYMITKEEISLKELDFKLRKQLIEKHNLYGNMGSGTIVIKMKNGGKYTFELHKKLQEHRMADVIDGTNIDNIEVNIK
IC50: ~0.05 µg/mL and ~0.02 µg/mL

From patent publication US20140248273A1 (published 2014)
